Here are results for one molecule from patent publication US20230374114A1, “Coronavirus antibodies and methods of use thereof” (Dana-Farber, published 2023).

This test concerns the target D614G Spike (SARS-CoV2, UniProt P0DTC2 16-1213). Kind of test: biosensor kinetics; scFv-Fc loaded at 1 ug/ml, spike as analyte at 48.3 nM.

B1: Ab 38 (scFv, V domains shown)
VH: QVTLKESGPTLVKPTQTLTLTCTFSGFSLTTSGVSVGWIRQPPGKALEWLALIHWDDDKRYSPSLRSRLTITRDTSKNQVVLTVTDMDPADTGTYYCASFIMTVYAEYFEDWGQGTLVTVSS
VL: EIVLTQSPATLSVSPGERATLSCRASQSVSSNLAWYQQKPGQAPRLLMYDVSTRATGIPARFSGSGSGTEFSLTISSLQSEDFAVYYCQQRGAWPLTFGGGTKVEIK
notes: also called Ab 38 scFv-Fc
For B1, the Response was 0.328.
